# Measured values taken from paper PMC7325057.
# System: CC(=O)N(O)CCCC[C@H](N)C(=O)O
# Assay: purified protein
# Conditions: 2 mM citrate, 2 mM ATP, 15 mM MgCl2, pH 7.5, 37 °C, apparent
Substance,Km,kcat,kcat/Km
hvKP IucA (Klebsiella pneumoniae subsp. pneumoniae; F473Y),1.58 ± 0.73 mM,1.68 s⁻¹,1060 M⁻¹ s⁻¹
hvKP IucA (Klebsiella pneumoniae subsp. pneumoniae; R299A),3.18 ± 0.63 mM,2.83 s⁻¹,891 M⁻¹ s⁻¹
hvKP IucA (Klebsiella pneumoniae subsp. pneumoniae; Y481R),5.77 ± 2.01 mM,0.46 s⁻¹,79.4 M⁻¹ s⁻¹
